These results are taken from the supplement of paper PMC10127200.

What all share (experiment): Euclidean distance of Cell Painting phenotypic profile (signed KS, 77 features) to DMSO centroid (dimensionless distance); higher = stronger phenotypic change vs DMSO (phenoactivity)
Details in all cases: 48 h; 5 or 10 uM (library dependent)

For one test, the system named is 786-O. The method, boiled down:
(§1)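 Five cancer lines and a healthy fibroblast line received library compounds at 10 or 5 uM (library-dependent, 0.1% DMSO final) for 48 h. Stained cells were imaged confocally at 20X (9 fields/well). Harmony extracted 77 features, each scored as a signed Kolmogorov-Smirnov statistic against same-plate vehicle wells. Profiles were plate-position corrected, correlation-weighted and replicate-averaged at the top dose. Phenoactivity is the Euclidean distance from each profile to the median vehicle profile.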

The subject of another test is A549. The essentials: as §1
For a further test, the system named is DU145. The method, boiled down: as §1
Another test concerns FB. The method, boiled down: as §1
The test system of the next test is HEPG2. The method, boiled down: as §1
In another test the test system is OVCAR4. The essentials:
as §1

Each structure is given as a SMILES string. The list shows a part of the results, in another mix than the full data.

Consider `O=P([O-])([O-])F.[Na+].[Na+]` [Sodium Monofluorophosphate], for which the Euclidean distance with 786-O was found to be 0.823; in the test on A549, 0.753; with DU145, 0.818; in the test on FB it was 0.605; in the test on HEPG2, 0.72; in the test on OVCAR4, 0.871.
